Anti-infective test results gathered from many reports (values: NIAID ChemDB through PubChem).

All rows: host cell toxicity; cell line: MT-4; read-out: CC50

Conditions beyond the fields shown may differ between rows.

O=C(/C=C/c1ccc(O)cc1)c1ccc(O)cc1O ; result: 14 µg/mL
CCn1cc(C(=O)O)c(=O)c2cc(F)c(N3CCN(c4ccccc4OC)CC3)c(OC(F)F)c21 ; result: 3.2 µM
N#Cc1ccc(Nc2nc(Oc3ccc(-c4ccc(C#N)cc4)cc3C(F)(F)F)c3sccc3n2)cc1 ; read by: MTT ; result: >243.6 µM
c1ccc(C2OCc3nc4ccccc4n32)cc1 ; result: 32.2 µM
COC(=O)[C@H](C)NP(=O)(OC[C@@H]1C=C[C@H](n2cc(C)c(=O)[nH]c2=O)O1)Oc1ccccc1 ; result: >100 µM
CC1(C)S[C@H]([C@H](NC(=O)Cc2ccccc2)C(=O)NCc2ccccc2)N[C@H]1C(=O)NCCNC(=O)[C@@H]1N[C@@H]([C@H](NC(=O)Cc2ccccc2)C(=O)NCc2ccccc2)SC1(C)C ; result: >100 µM
Cc1cc(C#N)cc(C)c1Oc1ccnc(NC2CCN(CC(=O)Nc3ccc(Cl)cc3Cl)CC2)n1 ; read by: MTT ; result: 1.751 µM
c1cc(CCNCCN2CCCC2)ccc1CCNCCN1CCCC1 ; result: 70 µg/mL
COc1ccccc1N1CCN(c2c(F)cc3c(=O)c(C(=O)O)cn(C4CC4)c3c2OC(F)F)CC1 ; result: 6 µM
C=C(C)[C@@H]1CC[C@]2(C(=O)OC)CC[C@]3(C)[C@H](CC[C@@H]4[C@@]5(C)C[C@@H](F)[C@H](OC(=O)CC(C)(C)C(=O)O)C(C)(C)[C@@H]5CC[C@]43C)[C@@H]12 ; read by: ATP / luminescence ; result: >16 µM
Nc1ccn([C@@H]2CC[C@H](CO)O2)c(=O)n1 ; result: 82.5 µM
Cc1ccnc2c1NC(=O)c1cccnc1N2C1CC1 ; result: 235 µM
CC(=O)Oc1ccc(/C=C/C(=O)O[C@@H](C(=O)O)[C@@H](OC(=O)/C=C/c2ccc(OC(C)=O)c(OC(C)=O)c2)C(=O)O)cc1OC(C)=O ; result: 74 µM
CCOCn1c2c(c(=O)[nH]c1=O)Nc1ccc(C)cc1S2 ; read by: MTT ; result: 9.5 µg/mL
COc1ccc(-c2coc3cc(O)ccc3c2=O)cc1 ; result: >100 µg/mL
COc1c(O)cc([C@H]2Oc3cc(O)cc(O)c3[C@@H](c3c(O)cc(O)c4c3O[C@H](c3cc(O)c(OC)c(O)c3)[C@H](O)C4)[C@@H]2O)cc1O ; read by: MTT ; result: 7.58 µg/mL
N#Cc1ccc(Nc2nc(Oc3ccc(-c4ccc(C#N)cc4)c(F)c3)c3sccc3n2)cc1 ; read by: MTT ; result: >269.9 µM
Fc1ccc(Cl)c(C2OCc3nc4ccccc4n32)c1 ; result: 32.6 µM
N#Cc1ccc(Nc2nc(Oc3ccc(-c4ccc(C#N)cc4)c(Cl)c3)c3sccc3n2)cc1 ; read by: MTT ; result: >261 µM
COc1c(CC=C(C)C)c(O)cc2c1C[C@H](c1ccc(O)c(CC=C(C)C)c1O)CO2 ; result: 15 µg/mL
Cc1cn([C@H]2C[C@H](N=[N+]=[N-])[C@@H](CO)O2)c(=O)[nH]c1=O ; result: >30 µg/mL
CN(C)C(=O)Oc1nsnc1-c1cccc(Cl)c1Cl ; result: 127 µM
Cn1cc(C(=O)O)c(=O)c2cc(N)c(N3CCN(c4ccccn4)CC3)cc21 ; read by: MTT ; result: 0.84 µg/mL
CC1(C)S[C@H]([C@H](NC(=O)Cc2ccccc2)C(=O)NCc2ccccc2)N[C@H]1C(=O)N[C@H](Cc1ccccc1)C(O)CNC(=O)Cc1ccccc1 ; result: >100 µM
CCC(C)Oc1nc(Cc2ccccc2)c(C)c(=O)[nH]1 ; result: 180 µM
CN(C)C(=O)Oc1nsnc1-c1ccc(Cl)c(Cl)c1 ; result: 315 µM
Cc1ccnc2c1NC(=O)c1cccnc1N2C1CC1 ; read by: MTT ; result: >15.9 µM
Cc1cc(C)cc(S(=O)(=O)c2c(C(=O)NC(C)C(=O)NCc3ccncn3)[nH]c3ccc(Cl)cc23)c1 ; read by: MTT / absorbance ; result: 48.83 µM
CCCCN(CC)C(=O)Oc1nsnc1-c1c(Cl)cccc1Cl ; result: 44 µM
CCCCOc1nc(Cc2ccccc2)c(C)c(=O)[nH]1 ; result: 146 µM
Cc1cc(C#N)cc(C)c1Oc1ccnc(NC2CCN(CC(=O)Nc3ccccc3)CC2)n1 ; read by: MTT ; result: 1.818 µM
O=C(O)c1cn(C2CC2)c2c(OC(F)F)c(N3CCN(c4ncccn4)CC3)c(F)cc2c1=O ; result: 18 µM
CC1(C)S[C@H]([C@H](NC(=O)Cc2ccccc2)C(=O)NCc2ccccc2)N[C@H]1C(=O)N[C@H](Cc1ccccc1)[C@H](O)CC(=O)NCc1ccccc1 ; result: >100 µM
CCOCn1c2c(c(=O)[nH]c1=O)Nc1ccccc1S2 ; read by: MTT ; result: 50 µg/mL
Cc1cc(C#N)cc(C)c1Oc1ccnc(NC2CCN(CC(=O)Nc3ccc(C#N)cc3)CC2)n1 ; read by: MTT ; result: 0.602 µM
CC(C)=CCc1c(O[C@@H]2C[C@H](CO)[C@@H](O)[C@H](O)[C@H]2O)cc(O)c2c(=O)c(O[C@@H]3O[C@@H](C)[C@H](O)[C@@H](O)[C@H]3O[C@@H]3O[C@H](CO)[C@@H](O)[C@H](O)[C@H]3O)c(-c3ccc(O)cc3)oc12 ; result: >500 µg/mL
Cc1cn([C@H]2C[C@H](N=[N+]=[N-])[C@@H](CO)O2)c(=O)[nH]c1=O ; read by: MTT ; result: 270 µg/mL
CCc1c(Cc2ccccc2)nc(OC)[nH]c1=O ; result: 323 µM
c1cc(CCNCCCN2CCCCC2)ccc1CCNCCCN1CCCCC1 ; result: 47 µg/mL
CN(C)C(=O)Oc1nsnc1-c1c(Cl)cccc1Cl ; result: 190 µM
CCOCn1c2c(c(=O)[nH]c1=O)Nc1ccc(Cl)cc1S2 ; read by: MTT ; result: 28 µg/mL
Cc1cccc(NC(=O)CN2CCC(Nc3nccc(Oc4c(C)cc(C#N)cc4C)n3)CC2)c1 ; read by: MTT ; result: 1.679 µM
CCN(C)C(=O)Oc1nsnc1-c1c(Cl)cccc1Cl ; result: 29 µM
CCC(C)Oc1nc(Cc2ccccc2)cc(=O)[nH]1 ; result: 344 µM
CC1(C)S[C@H]([C@H](NC(=O)Cc2ccccc2)C(=O)NCc2ccccc2)N[C@H]1C(=O)N[C@H](Cc1ccccc1)[C@H](O)CC(N)=O ; result: >100 µM

A second listing of 6 rows from above:

structure	read by	result
COC(=O)[C@H](C)NP(=O)(OC[C@@H]1C=C[C@H](n2cc(C)c(=O)[nH]c2=O)O1)Oc1ccccc1		>100 µM
c1ccc(C2OCc3nc4ccccc4n32)cc1		32.2 µM
c1cc(CCNCCN2CCCC2)ccc1CCNCCN1CCCC1		70 µg/mL
CCc1c(Cc2ccccc2)nc(OC)[nH]c1=O		323 µM
CCCCN(CC)C(=O)Oc1nsnc1-c1c(Cl)cccc1Cl		44 µM
N#Cc1ccc(Nc2nc(Oc3ccc(-c4ccc(C#N)cc4)c(Cl)c3)c3sccc3n2)cc1	MTT	>261 µM

CCn: concentration that lowers growth or viability of the cells by n%. Blank or dashed fields: not listed here.